Assay results taken from US11702444B2 (Shenzhen Institute of Geriatrics, priority 2020, dated 2023).

Assay: general procedure: solution-phase peptide synthesis; HATU/DIPEA
Settings: late stage modification step, total yield of five steps

Tubulysin U
step yield: 80%
